Drawing on patent US5235039A (Eli Lilly and Company, priority 1991, dated 1993), this text covers crude mass, isolated mass and isolated yield for 3 substances.

[ ]: non-standard residue; d: D form. The star is where a group is joined. Biotin = O=C1N[C@H]2[C@H](CS[C@H]2CCCCC(=O)*)N1

The data set can be described thus: general procedure: Boc solid-phase peptide synthesis; PAM resin; DCC (biotin coupling); standard double-couple protocol. To be noted: whole synthesis, scale 1.5 millimole.
As to Biotin-PQGIAG[dR]K-OH, the crude mass came to 1.79 g, the isolated mass was 1.27 g and the isolated yield was 87% of theory.
For Biotin-RRRPQQFFGLMGK-OH the same measures were 2.24 g, 0.669 g and 29% of theory.
Consider Biotin-GSQNYPIVGK-OH, for which the crude mass worked out at 2.4 g, the isolated mass amounted to 1.206 g and the isolated yield was 62% of theory.
